Pooled drug test results. Numbers come from NIAID ChemDB, via PubChem.

Shared fields: growth or infection tests; organism: Mycobacterium tuberculosis

Neighbouring rows are from separate reports. ECn is the concentration giving n% inhibition of infection, replication or growth. MIC50, MIC90 and the like: level of inhibition, or share of isolates inhibited. MIC bound comes from a single tested concentration. An empty or dashed field is not shown. Inhibition is in % at the dose shown (toxicity tests: loss of growth or viability).

| structure | setting | read by | strain or isolate | cell line | tested at | measure | value |
|---|---|---|---|---|---|---|---|
| COc1ccc2cc(CN(C(=O)Nc3ccc(F)cc3)C3CCCCCC3)c(=O)[nH]c2c1 | 14 d | broth dilution | H37Rv (ATCC 27294) | - | - | MIC | >64 µg/mL |
| c1ccc(-c2ccc(-c3cc(-c4ccccc4)on3)cc2)cc1 | - | - | H37Rv | - | - | MIC | 100 µg/mL |
| Cc1c(OCC(F)(F)F)ccnc1CSc1nc2ccccc2[nH]1 | 14 d | resazurin | H37Rv | - | - | MIC90 | 1.71 µM |
| CC1COc2c(N3CCN(C)CC3)c(F)cc3c(=O)c(C(=O)O)cn1c23 | - | agar | SMI 19 | - | - | MIC | 0.5 µg/mL |
| Cc1ccc(Nc2nc(NNc3nc(-c4ccccc4)c(C#N)c(=O)n3C)nc(Nc3ccc(C)cc3C)n2)c(C)c1 | - | - | H37Rv | VERO | 12.5 µg/mL | inhibition | 95% |
| COc1ccc2ccc3oc([N+](=O)[O-])cc3c2c1 | - | resazurin | H37Rv | - | 6.25 µg/mL | inhibition | 21% |
| COc1ccccc1N1CCN(Cc2c(C(C)=O)[n+](=O)c3ccccc3n2[O-])CC1 | - | BACTEC | H37Rv | - | - | EC50 | >6.25 µg/mL |
| COc1ccc(-c2ccc(OCC(=O)OC(C)(C)C)cc2CN2CCN(c3ccccn3)CC2)cc1 | - | broth dilution | H37Rv (ATCC 27294) | - | - | MIC | 16 µg/mL |
| CO[C@H]1/C=C/O[C@@]2(C)Oc3c(C)c(O)c4c(=O)c(c5oc6cc(N7CCN(CC(C)C)CC7)cc(=O)c6nc5c4c3=C2O)NC(=O)/C(C)=C\C=C\[C@H](C)[C@H](O)[C@@H](C)[C@@H](O)[C@@H](C)[C@H](OC(C)=O)[C@@H]1C | - | - | 28 (streptomycin-resistant) | - | - | MIC | 0.0078 µg/mL |
| CCC(C)C(=O)c1cn(-c2ccccc2)nn1 | - | - | H37Rv | - | - | MIC | >12.5 µg/mL |
| CC1(C)C2CC3OB(C[C@@H](Cc4ccccc4)NC(=O)[C@@H](N)CCCCN)O[C@]3(C)C1C2 | - | agar | H37Rv | - | - | MIC | ≤5 µg/mL |
| COc1ccc(Nc2nc(NNc3nc(-c4ccccc4)c(C#N)c(=O)n3C)nc(Nc3ccc(OC)cc3)n2)cc1 | - | - | H37Rv | - | - | MIC | >12.5 µg/mL |
| Nc1cc([N+](=O)[O-])ccc1C(=O)O | - | - | H37Rv | - | - | MIC | >100 µg/mL |
| COc1cccc(Nc2nc(NNc3nc(-c4ccccc4)c(C#N)c(=O)n3C)nc(Nc3cccc(OC)c3)n2)c1 | - | - | H37Rv | VERO | - | EC50 | <12.5 µg/mL |
| CCOC(=O)NC | - | - | H37Rv | - | - | MIC | 100 µg/mL |
| CN[C@@H]1[C@@H](O)[C@@H](O[C@@H]2[C@@H](O)[C@H](O[C@H]3O[C@H](CN)CC[C@H]3N)[C@@H](N)C[C@H]2N)OC[C@]1(C)O | - | - | H37Rv | - | - | Mean MIC | 3.5 µg/mL |
| CC(=O)C(CCCn1c(=O)c2c(ncn2C)n(C)c1=O)CCCn1c(=O)c2c(ncn2C)n(C)c1=O | - | BACTEC | H37Rv | - | 12.5 µg/mL | inhibition | 0% |
| NC(=O)c1cnccn1 | - | - | Isolate 97-854 | - | - | MIC | 100 µg/mL |
| O=C(CN1CCN(CC(=O)c2ccccc2)CC1)c1ccccc1 | - | BACTEC | H37Rv | - | - | MIC bound | >12.8 µg/mL |
| N#CCCN1C(=O)c2ccccc2C1=O | - | - | H37Rv | - | - | MIC | >50 µg/mL |
| CC[C@H]1OC(=O)[C@H](C)[C@@H](O[C@H]2C[C@@](C)(OC)[C@@H](O)[C@H](C)O2)[C@H](C)[C@@H](O[C@@H]2O[C@H](C)C[C@H](N(C)C)[C@H]2O)[C@](C)(OC)C[C@@H](C)C(=O)[C@H](C)[C@@H](O)[C@]1(C)O | - | - | H37Ra | - | - | Mean MIC | 5.5 µg/mL |
| CCCCCCCCCCCCCCCCCC(=O)NN | - | - | H37Rv | - | - | MIC | 100 µg/mL |
| NCC[C@H](O)C(=O)N[C@@H]1C[C@H](N)[C@@H](O[C@H]2O[C@H](CN)[C@@H](O)[C@H](O)[C@H]2O)[C@H](O)[C@H]1O[C@H]1O[C@H](CO)[C@@H](O)[C@H](N)[C@H]1O | - | - | H37Rv | - | - | Median MIC | 0.47 µg/mL |
| C(=N\Nc1ccncc1)/c1ccc2ccccc2n1 | - | - | H37Rv | - | - | MIC | 0.05 µg/mL |
| Cn1c(NNc2nc(Nc3ccccn3)nc(Nc3ccccn3)n2)nc(-c2ccccc2)c(C#N)c1=O | - | - | H37Rv | - | - | EC50 | >12.5 µg/mL |
| NCCCC[C@H](N)C(=O)N[C@@H](CB(O)O)Cc1ccccc1 | - | - | H37Rv | - | - | MIC | ≤50 µg/mL |
| O=C(O)C(=O)Nc1ccc([As](=O)(O)O)cc1 | - | - | H37Rv | - | - | MIC | >100 µg/mL |
| Cn1c(NNc2nc(Nc3ccc(Cl)cc3Cl)nc(Nc3ccc(Cl)cc3Cl)n2)nc(-c2ccc(Cl)cc2)c(C#N)c1=O | - | - | H37Rv | - | - | MIC | >12.5 µg/mL |
| CC(=O)c1c(C)n([O-])c2ccccc2[n+]1=O | - | BACTEC | H37Rv | VERO | 6.25 µg/mL | inhibition | 96% |
| O=C(Nc1cccc2c1Oc1ccccc1O2)C(F)(F)F | - | resazurin | H37Rv | - | 6.25 µg/mL | inhibition | 13% |
| O=C(O)c1ccccc1-c1c2cc(Br)c(=O)c(Br)c-2oc2c(Br)c(O)c(Br)cc12 | - | - | H37Rv | - | - | MIC | >100 µg/mL |
| C[C@@H](B1OC2CC3CC(C3(C)C)[C@@]2(C)O1)[C@@H](Cc1ccccc1)NC(=O)[C@@H](N)CCCCN | - | agar | H37Rv | - | - | MIC | ≤50 µg/mL |
| O=[N+]([O-])c1cc2ncccc2c2ncccc12 | - | - | KM-R | - | - | MIC | 12.5 µg/mL |
| Nc1ccc(S(=O)(=O)c2ccc(N)cc2S(N)(=O)=O)cc1 | - | - | H37Rv | - | - | MIC | 50 µg/mL |
| CC(C)N=c1cc2n(-c3ccc(Cl)cc3)c3ccccc3nc-2cc1Nc1ccc(Cl)cc1 | - | broth dilution / resazurin | MDR17 | - | - | MIC | 0.25 µg/mL |
| CC(=O)Nc1ccc(N(S(C)(=O)=O)S(C)(=O)=O)cc1 | - | - | H37Rv | - | - | MIC | >100 µg/mL |
| COc1ccc2nc(NCCNCCO)cc(NCCNCCO)c2c1.O=C(O)/C=C\C(=O)O.O=C(O)/C=C\C(=O)O.O=C(O)/C=C\C(=O)O | - | BACTEC | H37Rv | - | 12.5 µg/mL | inhibition | 44% |
| Cn1c(NNc2nc(Nc3ccc(F)c(Cl)c3)nc(Nc3ccc(F)c(Cl)c3)n2)nc(-c2ccccc2)c(C#N)c1=O | - | - | H37Rv | - | 12.5 µg/mL | inhibition | 98% |
| CCCC[N+]12CC=C3COC(=O)C(C)(O)C(C)(O)C(C)C(=O)OC(CC1)C32.[Br-] | - | BACTEC | H37Rv | - | - | MIC bound | >12.5 µg/mL |
| Nc1ccc(NC(=O)CC(=O)c2ccccc2)c(Cl)c1 | - | - | H37Rv | - | - | MIC | >100 µg/mL |
| O=C1OC(c2ccccc2)=N/C1=C\c1cc([N+](=O)[O-])ccc1Cl | - | BACTEC | H37Rv | - | - | MIC bound | >12.5 µg/mL |
| N[C@@H]1CONC1=O | - | - | H37Rv | - | - | Mean MIC | 22 µg/mL |
| N#CC(c1ccccc1)c1ccccc1 | - | - | H37Rv | - | - | MIC | 50 µg/mL |
| CC1CN(c2c(F)cc3c(=O)c(C(=O)O)cn(C4CC4)c3c2F)CCN1 | - | - | CSU12 | - | - | MIC | ≤0.125 µg/mL |
| OCC(O)CN(Cc1ccccc1)c1ccccc1 | - | - | H37Rv | - | - | MIC | 100 µg/mL |
| Cn1c(NNc2nc(Nc3ccc(Cl)cc3Cl)nc(Nc3ccc(Cl)cc3Cl)n2)nc(-c2ccccc2)c(C#N)c1=O | - | - | H37Rv | - | 12.5 µg/mL | inhibition | 14% |
| CCCCC1C/C=C/C=C/C=C/C=C/C(OC2OC(C)C(O)C(N)C2O)CC2OC(O)(CC(O)CC3OC3/C=C/C(=O)O1)CC(O)C2C(=O)O | - | BACTEC | H37Rv | - | 12.8 µg/mL | inhibition | 0% |
| C[C@@H]1CN(c2c(F)c(N)c3c(=O)c(C(=O)O)cn(C4CC4)c3c2F)C[C@H](C)N1 | - | - | Strain 24 | - | - | MIC | 0.125 µg/mL |
| COC(=O)COc1ccc(-c2cccc(OC)c2)c(CN2CCN(c3ccccn3)CC2)c1 | - | broth dilution | H37Rv (ATCC 27294) | - | - | MIC | 8 µg/mL |
| NC[C@H]1O[C@H](O[C@H]2[C@H](O)[C@@H](O[C@H]3O[C@H](CO)[C@@H](O)[C@H](N)[C@H]3O)[C@H](N)C[C@@H]2N)[C@H](O)[C@@H](O)[C@@H]1O | - | - | H37Ra | - | - | Mean MIC | 3.13 µg/mL |
| Cc1cc(C)c(C(=O)c2cn(-c3ccccc3)nn2)c(C)c1 | - | - | H37Rv | - | - | MIC | >12.5 µg/mL |
| C[C@H]1COc2c(N3CCN(C)CC3)c(F)cc3c(=O)c(C(=O)O)cn1c23 | - | - | Erdman | - | - | MIC | 0.25 µg/mL |
| COc1cc(Br)cc(Br)c1OC | - | - | H37Rv | - | - | MIC | 50 µg/mL |
| COc1ccc(N(Cc2ccc(C)o2)C(=S)Nc2ccccc2)cc1 | - | BACTEC | H37Rv | - | 12.5 µg/mL | inhibition | 29% |
| O=C1c2cc(Br)c(Br)cc2C(=O)c2c(O)ccc(O)c21 | - | - | H37Rv | - | - | MIC | >100 µg/mL |
| Cc1cc(-c2cc3c(cc2F)c(=O)c(C(=O)O)cn3C2CC2)cc(C)n1 | - | - | 131-4 | - | - | MBC | 4 µg/mL |
| Oc1cccc2cccc(O)c12 | - | - | H37Rv | - | - | MIC | 50 µg/mL |
| NNC(=O)c1ccncc1 | - | - | Isolate 2218 | - | - | MIC | 4 µg/mL |
| N#Cc1cccnc1 | - | - | H37Rv | - | - | MIC | >100 µg/mL |
| O=C(NCCN1CCN2Cc3[nH]c4ccccc4c3CC2C1)c1ccc([N+](=O)[O-])cc1 | - | resazurin | H37Rv | - | - | MIC bound | >6.25 µg/mL |
| CC(=O)c1c(CN2CCN(c3ccc(Cl)cc3)CC2)n([O-])c2ccccc2[n+]1=O | - | BACTEC | H37Rv | - | - | EC50 | >6.25 µg/mL |
| O=c1c(Br)cc2nc3ccccc3sc-2c1Br | - | BACTEC | H37Rv | - | 12.5 µg/mL | inhibition | 71% |
| CC(=O)c1c(CN2CCN(c3ccc([N+](=O)[O-])cc3)CC2)n([O-])c2ccccc2[n+]1=O | - | BACTEC | H37Rv | - | 6.25 µg/mL | inhibition | 0% |
| O=[N+]([O-])c1ccc2c(c1)oc1ccccc12 | - | - | H37Rv | - | - | MIC | >100 µg/mL |
| CN(C)CCC(=O)C(=Cc1cccs1)C(=O)CCN(C)C | - | resazurin | H37Rv | - | - | MIC bound | >6.25 µg/mL |
| O=C(c1cn(-c2ccc(Cl)cc2)nn1)c1ccc(Cl)cc1Cl | - | - | H37Rv | - | - | MIC | >12.5 µg/mL |
| CC(=O)c1c(C)n([O-])c2ccc(C)cc2[n+]1=O | - | BACTEC | H37Rv | VERO | 6.25 µg/mL | inhibition | 100% |
| Cc1ccc(-c2cc[n+]3c(n2)oc2ccccc23)cc1.[I-] | - | BACTEC | H37Rv | - | 12.5 µg/mL | inhibition | -11% |
| CC(NC(=O)c1c(F)cccc1Cl)c1nnc(SCCOc2ccc(F)cc2)n1Cc1cccnc1 | 7 d | broth dilution | H37Rv (ATCC 27294) | - | - | MIC | >64 µg/mL |
| CCCCc1ccc2ccccc2n1 | - | - | H37Rv | - | - | MIC | 100 µg/mL |
| C1CNCCN1.CCC1CN(C(=S)S)C(CC)CN1 | - | BACTEC | H37Rv | - | 12.5 µg/mL | inhibition | 1% |
| CC1(C)C2CC3OB(C[C@@H](Cc4ccccc4)NC(=O)[C@@H](N)Cc4ccccc4)O[C@]3(C)C1C2 | - | agar | H37Rv | - | - | MIC | ≤500 µg/mL |
| Cn1c(NNc2nc(Nc3cc(Cl)cc(Cl)c3)nc(Nc3cc(Cl)cc(Cl)c3)n2)nc(-c2ccccc2)c(C#N)c1=O | - | - | H37Rv | VERO | - | EC50 | <12.5 µg/mL |
| CN(C)CCCn1c2nc(=O)[nH]c(=O)c-2nc2cc(Cl)c(Cl)cc21 | - | BACTEC | H37Rv | - | - | MIC bound | >6.25 µg/mL |
| CC(C)C(=O)c1cn(-c2cccc3ccccc23)nn1 | - | - | H37Rv | - | 12.5 µg/mL | inhibition | 0% |
| C=CC(C)(C)c1c2c(c(O)c3c(=O)c4ccc(O)c(O)c4oc13)C=CC(C)(C)O2 | - | BACTEC | H37Rv | - | - | MIC | ≥12.8 µg/mL |
| Cn1c(NNc2nc(Nc3cccc([N+](=O)[O-])c3)nc(Nc3cccc([N+](=O)[O-])c3)n2)nc(-c2ccccc2)c(C#N)c1=O | - | - | H37Rv | - | - | MIC | >12.5 µg/mL |
| NNC(=O)c1ccncc1 | - | - | Erdman | - | - | MIC | ≤0.125 µg/mL |
| O=C(O)c1ccccc1Oc1ccccc1C(=O)O | - | - | H37Rv | - | - | MIC | >100 µg/mL |
| CC(=O)O[C@H]1C[C@@]2(C)[C@@H](C[C@@H](O)[C@H]3[C@@]4(C)CC[C@@H](O)[C@@H](C)[C@@H]4CC[C@@]32C)/C1=C(\CCC=C(C)C)C(=O)O | - | - | H37Rv | - | - | Mean MIC | 12 µg/mL |
| CC12CCC(C(=O)N(CCC[N+](C)(C)C)C1=O)C2(C)C | - | BACTEC | H37Rv | - | 12.5 µg/mL | inhibition | 43% |
| CCCCOC(=O)CC(=O)OCCCC | - | - | H37Rv | - | - | MIC | 100 µg/mL |